Values from PubChem BioAssay AID504761 (Drosophila RNAi Screening Center, 2011)

Screen: 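Fly genes whose silencing reduces dengue virus type 2 infection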 (primary screen)
Cell system: D.Mel-2 cells from Drosophila
Knock-down reagent: long dsRNA against Drosophila genes
Treatment: infection with dengue virus type 2; dose and infection time not stated
Detection: 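Per well on two replicate plates, imaging gave the percent of cells positive for viral envelope protein, ranked by infection, and a nuclear count of cells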
Direction: infection score: higher = more virus-infected cells; cell count: higher = more cells in the well
Active means: 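Low infection ranks in the two replicates (chance level up to 0.065) followed by a retest with a 1.5-fold or larger significant decrease, p below 0.05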
Meaning of the calls: active = confirmed: knock-down lowers infection; inactive = not picked or not confirmed
The screen tested about 22,000 reagents; this is an unselected part of those with a known target gene and a result. In the full data, 116 (0.52%) were called active. 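Calls depend on retest data that are not deposited; infection was ranked per plate without normalising between plates; the unit of the infection score is not given.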 Raw values vary from plate to plate and are shown uncorrected. Not stated in the record: the amount of reagent, the time to read-out.

gene knocked down	dsRNA	infection score, replicate 1	infection score, replicate 2	cell count, replicate 1	cell count, replicate 2	activity call
Uxs (UDP-xylose synthase)	DRSC10941	6.49	4.09	6537	6648	inactive
Uxs (UDP-xylose synthase)	DRSC28512	5.76	11.6	5033	4050	inactive
ntc (nutcracker)	DRSC08166	22.2	13.8	4664	3113	inactive
scw (screw)	DRSC01711	1.46	2.31	5955	5923	inactive
scw (screw)	DRSC21252	2.51	0.28	6006	6057	inactive
CG12377 (retired record)	DRSC11671	11.8	19.8	6688	6293	inactive
CG12377 (retired record)	DRSC11672	14.3	28.7	5865	5688	inactive
RpL11 (Ribosomal protein L11)	DRSC07537	4.27	2.02	1358	791	inactive
RpL11 (Ribosomal protein L11)	DRSC26217	7.32	9.88	1693	3734	inactive
Cluap1 (Clusterin associated protein 1)	DRSC20637	3.3	3.19	5790	6765	inactive
Cluap1 (Clusterin associated protein 1)	DRSC23735	9.78	4.15	6112	5922	inactive
CG10005	DRSC14172	0.88	3.48	6575	6374	inactive
Taf7 (TBP-associated factor 7)	DRSC15445	29.7	23.5	5228	6032	inactive
Taf7 (TBP-associated factor 7)	DRSC26720	3.18	14.3	6265	6041	inactive

Next part, starting with the last 2 of the part before.
gene knocked down	dsRNA	infection score, replicate 1	infection score, replicate 2	cell count, replicate 1	cell count, replicate 2	activity call
Taf7 (TBP-associated factor 7)	DRSC15445	29.7	23.5	5228	6032	inactive
Taf7 (TBP-associated factor 7)	DRSC26720	3.18	14.3	6265	6041	inactive
CG32073	DRSC09087	2.96	2.91	6276	5809	inactive
CG32073	DRSC09894	2.36	6.16	6067	5921	inactive
ft (fat)	DRSC00819	4.87	5.88	6306	5494	inactive
CG42521	DRSC10154	1.78	3.07	6193	5540	inactive
CG12236	DRSC17831	3.3	0.67	6579	6745	inactive
CG12236	DRSC25773	3.03	0.65	6344	6449	inactive
Kaz-m1 (Kazal-type protease inhibitor m1)	DRSC16990	4.32	7.69	6711	7164	inactive
mldr (mulder)	DRSC18100	10	5.83	5920	5902	inactive
mldr (mulder)	DRSC27990	7.44	11	6224	6125	inactive
